Here are results for two molecules from patent publication US20230374114A1, “Coronavirus antibodies and methods of use thereof” (Dana-Farber, published 2023).

For this assay, the target named is WT Spike (SARS-CoV2, UniProt P0DTC2 16-1213). Nature of the assay: biosensor kinetics; scFv-Fc loaded at 1 ug/ml, spike as analyte at 48.3 nM.

B1: Ab 38 (scFv, V domains shown)
VH: QVTLKESGPTLVKPTQTLTLTCTFSGFSLTTSGVSVGWIRQPPGKALEWLALIHWDDDKRYSPSLRSRLTITRDTSKNQVVLTVTDMDPADTGTYYCASFIMTVYAEYFEDWGQGTLVTVSS
VL: EIVLTQSPATLSVSPGERATLSCRASQSVSSNLAWYQQKPGQAPRLLMYDVSTRATGIPARFSGSGSGTEFSLTISSLQSEDFAVYYCQQRGAWPLTFGGGTKVEIK
notes: also called Ab 38 scFv-Fc
Consider B1, for which the Response stood at 0.274.

B2: S1-RBD-R3-T1-F9 Ab (Ab_39) (scFv, V domains shown)
VH: QVTLKESGPTLVKPTQTLTLTCTLSGVSLDTIGMRVSWIRQPPGKALEWLARIDWDDDKFYSTALKTRLTISKDTSKNQVVFTMTSMDPVDTATYYCARSGLLYDLDVWGRGTLVTVSS
VL: QSVVTQPPSVSGAPGQRVTISCTGSDSDIGANFVQWYQQLPGTAPKLLIWRNTNRPSGVPDRFSASKSGTSASLAITGLQAEDEADYFCQSYDSSLSAYVFGGGTKVTVL
notes: also called Ab 39 scFv-Fc
With B2, the Response is 0.369.
